Measured values from several laboratories, pooled; numbers as filed in NIAID ChemDB.

Shared fields: host cell toxicity; cells: HeLa; endpoint: CC50

Conditions beyond the fields shown may differ between rows.

COc1ccc(C(=O)CCCCOc2ccc(C3=NCCO3)cc2)cc1 ; result: >283 µM
CC(=O)c1c(O)c2cccnc2n(O)c1=O ; result: <100 µM
Cc1ccc(C(=O)CCCCOc2ccc(C#N)cc2)cc1 ; result: 146 µM
CS(=O)(=O)c1ccc(Cc2ccc(Br)cc2)nc1 ; result: >10 µg/mL
O=c1cc(NCc2cccc(CN3CCCCC3)c2)c2cccnc2n1O ; result: <100 µM
CC(C)S(=O)(=O)c1ccc(Cc2ccc(Cl)c(Cl)c2)nc1 ; result: 10 µg/mL
Cc1ccc(C(=O)CCCCOc2ccc(C(=O)NCCO)cc2)o1 ; result: >305 µM
O=c1cc(-c2cn[nH]c2)c2cccnc2n1O ; result: <100 µM
CCS(=O)(=O)c1ccc(Cc2ccc(Cl)c(Cl)c2)nc1 ; result: >10 µg/mL
Cn1cccc1C(=O)CCCCOc1ccc(C2=NCCO2)cc1 ; result: >306 µM
CCOC(=O)c1ccc(OCCCCC(=O)c2ccc(F)cc2)cc1 ; result: >290 µM
CCOC(=O)c1ccc(OCCCCC(=O)c2cc(C)cs2)cc1 ; result: >289 µM
O=C(NCC1CCNCC1)c1c(O)c2cccnc2n(O)c1=O ; result: <100 µM
Cc1cc(C(=O)CCCCOc2ccc(C3=NCCO3)cc2)c(C)n1C ; result: 141 µM
COC(=O)c1cnc2c(c1)c(O)c(C(=O)NCc1ccccc1)c(=O)n2O ; result: <100 µM
O=C(CCCCOc1ccc(C2=NCCO2)cc1)c1ccc(F)cc1 ; result: >293 µM
CS(=O)(=O)c1ccc(Cc2ccc(F)cc2)nc1 ; result: >10 µg/mL
Nc1ccc(Cc2ccc(-c3cc(=O)n(O)c4ncccc34)cc2)cc1 ; result: <100 µM
N#Cc1ccc(OCCCCC(=O)c2ccc(Cl)cc2)cc1 ; result: 319 µM
Clc1ccc(CCCCCOc2ccc(C3=NCCO3)cc2)s1 ; result: 71 µM
CCOC(=O)c1c(O)c2cc(C(=O)N3CCCCC3CCc3ccccc3)cnc2n(O)c1=O ; result: <100 µM
Cc1ccc(C(=O)CCCCOc2ccc(C3=NCCO3)cc2)cc1Cl ; result: >269 µM

A second listing of 3 rows from above:

| compound | result |
|---|---|
| N#Cc1ccc(OCCCCC(=O)c2ccc(Cl)cc2)cc1 | 319 µM |
| Cc1ccc(C(=O)CCCCOc2ccc(C3=NCCO3)cc2)cc1Cl | >269 µM |
| CCOC(=O)c1c(O)c2cc(C(=O)N3CCCCC3CCc3ccccc3)cnc2n(O)c1=O | <100 µM |

CCn is the concentration with n% toxicity to the cells.